A mixed list of measured activities; the numbers were collected in NIAID ChemDB.

All rows: whole-cell or culture tests; organism: HIV-1; read by: cytopathic effect / XTT; measure: EC50

ECn is the concentration giving n% inhibition of infection, replication or growth. Lines come from different laboratories, so protocols vary. Blank or dashed fields: not listed here.

Cc1ccnc2c1NC(=O)c1cccnc1N2C1CC1 ; strain: Calanolide A-resistant (RT T139I) ; changes: RT-T139I ; cells: CEM + CEM-SS ; result: 0.01 µM
Cc1cn([C@@H]2O[C@H](CO[Si](C)(C)C(C)(C)C)C3(OS(=O)(=O)C=C3N)[C@H]2O[Si](C)(C)C(C)(C)C)c(=O)n(C)c1=O ; strain: IIIB ; changes: RT-Y188C ; cells: CEM ; result: 2.4 µM
CCCCS1(=O)=NC(=O)Nc2ccccc21 ; strain: IIIB ; cells: CEM + CEM-SS ; result: >280 µM
Nc1nc(NC2CC2)c2ncn([C@H]3C=C[C@@H](CO)C3)c2n1 ; strain: Site-directed mutant ; changes: RT-K65R ; cells: MT-2 ; result: 1.25 µM
CCc1c(C(=O)c2cc(C)cc(C)c2)n(CC2CC=CC2)c(=O)[nH]c1=O ; strain: 4XAZT/L100I (RT D67N K70R L100I T215Y K219Q) ; changes: RT-D67N K70R L100I T215Y K219Q ; cells: CEM + CEM-SS ; result: 0.0001 µM
CC(C)=CCN1Cc2cc(Cl)cc3[nH]c(=S)n(c23)C[C@@H]1C ; strain: RF ; cells: CEM + CEM-SS ; result: 0.06 µM
Cc1ccnc2c1NC(=O)c1cccnc1N2C1CC1 ; strain: NL4-3 ; changes: RT-L100I ; cells: CEM + CEM-SS ; result: 0.1 µM
Cc1cc(-c2ccc(N=Nc3ccc4c(S(=O)(=O)O)cc(S(=O)(=O)O)c(N)c4c3O)c(C)c2)ccc1N=Nc1ccc2c(S(=O)(=O)O)cc(S(=O)(=O)O)c(N)c2c1O ; strain: RF ; cells: CEM + CEM-SS ; result: 20 µM
C/C=C/CSc1cc(NC(=S)c2ccsc2C)ccc1Cl ; strain: NL4-3 (RT L100I) ; changes: RT-L100I ; cells: CEM + CEM-SS ; result: >2 µM
Cc1ccnc2c1NC(=O)c1cccnc1N2C1CC1 ; strain: NL4-3 ; changes: RT-V108I ; cells: CEM + CEM-SS ; result: 0.06 µM
CCCc1cc(=O)oc2c3c(c4c(c12)OC(C)(C)C=C4)O[C@@H](C)[C@H](C)[C@@H]3O ; strain: IIIB ; cells: CEM + CEM-SS ; result: 0.5 µM
O=C1N(Cc2ccc(CO)cc2)[C@H](Cc2ccccc2)[C@H](O)[C@@H](O)[C@@H](Cc2ccccc2)N1Cc1ccc(CO)cc1 ; strain: IIIB ; changes: PR-I84V L90M ; cells: MT-4 ; result: 0.32 µM
Cc1cn([C@H]2C[C@H](N=[N+]=[N-])[C@@H](CO)O2)c(=O)[nH]c1=O ; strain: 214 ; cells: CEM + CEM-SS ; result: 0.0009 µM
CCCc1cc(=O)oc2c3c(c4c(c12)OC(C)(C)C=C4)O[C@H](C)[C@@H](C)[C@@H]3O ; strain: IIIB ; cells: CEM + CEM-SS ; result: 0.2 µM
Cc1occc1C(=S)Nc1ccc(Cl)c(/C=N/OC(C)(C)C)c1 ; strain: NL4-3 (RT V106I) ; changes: RT-V106I ; cells: CEM + CEM-SS ; result: 2.7 µM
Cc1cn([C@H]2C[C@H](N=[N+]=[N-])[C@@H](CO)O2)c(=O)[nH]c1=O ; strain: 4XAZT+Y181C (RT D67N K70R Y181C T215Y K219Q) ; changes: RT-D67N K70R Y181C T215Y K219Q ; cells: CEM + CEM-SS ; result: 0.04 µM
Fc1cccc(F)c1C1SCc2nc3ccccc3n21 ; strain: IIIB ; cells: CEM ; result: 1.39 µM
Cc1cn([C@H]2C[C@H](N=[N+]=[N-])[C@@H](CO)O2)c(=O)[nH]c1=O ; strain: Calanolide-resistant (RT T139I) ; changes: RT-T139I ; cells: CEM + CEM-SS ; result: 0.006 µM
Cc1cn([C@H]2C[C@H](N=[N+]=[N-])[C@@H](CO)O2)c(=O)[nH]c1=O ; strain: CLADE C ; cells: PBMC ; result: 0.002 µM
Cc1cn([C@H]2C[C@H](N=[N+]=[N-])[C@@H](CO)O2)c(=O)[nH]c1=O ; strain: RF ; cells: MT-2 ; result: 3.95 µM
O=S1(c2ccccc2)=NC(=S)Nc2ccccc21 ; strain: IIIB ; cells: CEM + CEM-SS ; result: 4.04 µM
CCc1c(Sc2ccccn2)n(COCc2ccccc2)c(=O)[nH]c1=O ; strain: NL4-3 ; changes: RT-A98G ; cells: CEM + CEM-SS ; result: 0.02 µM
Nc1nc(=O)n([C@@H]2CS[C@H](CO)O2)cc1F ; strain: Site-directed mutant ; changes: RT-K65R M184V ; cells: MT-2 ; result: >161 µM
Fc1cccc(F)c1C1SCc2nc3ccccc3n21 ; strain: TP1 ; cells: CEM + CEM-SS ; result: 2.19 µM
O=C1N=S(=O)(c2ccccc2)c2ccccc2N1 ; strain: IIIB ; cells: MT-2 ; result: 215 µM

For reference, 2 entries again:

structure	strain	changes	cells	result
Fc1cccc(F)c1C1SCc2nc3ccccc3n21	TP1		CEM + CEM-SS	2.19 µM
Cc1occc1C(=S)Nc1ccc(Cl)c(/C=N/OC(C)(C)C)c1	NL4-3 (RT V106I)	RT-V106I	CEM + CEM-SS	2.7 µM